Laboratory results from patent US20040251215A1, “Method for killing organicsms in the course of conveying ballast water in ships and apparatus thereof” (priority 2003, published 2004).

Experiment: Influence of OH on quality of ballast water

Substance hydroxyl radical [OH] has an Ammonium salt (OH solution 0.63 mg/L) of 0.4 µg/L, an As (OH solution 0.63 mg/L) of 0.43 µg/L and a Cd (OH solution 0.63 mg/L) of 0.7 µg/L. It also gave a Cu (OH solution 0.63 mg/L) of 2.6 µg/L, a DO (OH solution 0.63 mg/L) of 13.24 mg/L and a Fe (OH solution 0.63 mg/L) of 8.6 µg/L. The Hg (OH solution 0.63 mg/L) was 0.031 µg/L, the Nitrate (OH solution 0.63 mg/L) was 184.1 µg/L and the Nitrite (OH solution 0.63 mg/L) was 1.1 µg/L. The Pb (OH solution 0.63 mg/L) was 1.6 µg/L, the Phosphate (OH solution 0.63 mg/L) was 32.9 µg/L and the TOC (OH solution 0.63 mg/L) was 2.39 mg/L. For the same substance, the Zn (OH solution 0.63 mg/L) was 68.6 µg/L, the pH (OH solution 0.63 mg/L) was 8.12 and the COD (OH solution 0.63 mg/L, untreated 0.54 mg/L) was “Not detectable”. The “Ammonium salt, ratio of change” value (OH solution 0.63 vs 0 mg/L) was −99.5%, the “As, ratio of change” value (OH solution 0.63 vs 0 mg/L) was −2.3% and the “COD, ratio of change” value (OH solution 0.63 vs 0 mg/L) was −100%. The “Cd, ratio of change” value (OH solution 0.63 vs 0 mg/L) was −12.5%, the “Cu, ratio of change” value (OH solution 0.63 vs 0 mg/L) was −38.1% and the “DO, ratio of change” value (OH solution 0.63 vs 0 mg/L) was “+77.2%”. The “Electric conductivity, ratio of change” value (OH solution 0.63 vs 0 mg/L) was “+0.6%”, the “Fe, ratio of change” value (OH solution 0.63 vs 0 mg/L) was −40.3% and the “Hg, ratio of change” value (OH solution 0.63 vs 0 mg/L) was −6.1%. For the same substance, the “Nitrate, ratio of change” value (OH solution 0.63 vs 0 mg/L) was “+17.4%”, the “Nitrite, ratio of change” value (OH solution 0.63 vs 0 mg/L) was −98.4% and the “Pb, ratio of change” value (OH solution 0.63 vs 0 mg/L) was −75.4%. The “Phosphate, ratio of change” value (OH solution 0.63 vs 0 mg/L) was “+27.0%”, the “Salinity, ratio of change” value (OH solution 0.63 vs 0 mg/L) was 0% and the “TOC, ratio of change” value (OH solution 0.63 vs 0 mg/L) was “+42.3%”. For the same substance, the “Turbidity, ratio of change” value (OH solution 0.63 vs 0 mg/L) was −50.0%, the “Zn, ratio of change” value (OH solution 0.63 vs 0 mg/L) was “+298.8%” and the “pH, ratio of change” value (OH solution 0.63 vs 0 mg/L) was −0.1%.
